A mixed list of measured activities; the numbers were collected in NIAID ChemDB.

Common to all: whole-cell or culture tests; species: HIV-1; read-out: inhibition

Inhibition is in % at the dose shown (toxicity tests: loss of growth or viability).

smiles | read by | cells | dose | strain or isolate | changes | value
Nc1cccc(C(=O)N2CCN(C(=O)C(=O)c3c[nH]c4c(F)ccc(F)c34)CC2)c1 | luciferase | HeLa + HELA CD4+/CCR5 | 10 µM |  |  | >98%
Nc1cccc(CO[C@@H]2[C@H](O)[C@@H](O)[C@@H](OCc3cccc(N)c3)[C@@H](Cc3ccccc3)S(=O)(=O)[C@@H]2Cc2ccccc2)c1 | cytopathic effect / XTT | MT-2 | 0.02 µM | HXB2D |  | 90%
Cc1nnc(C(=O)NC(C)(C)c2nc(C(=O)NCc3ccc(F)cc3)c(O)c(=O)n2C)o1 | luciferase / reporter gene | TZM-bl | 0.05 µM | R9 |  | 80%
c1ccc(C2SCc3nc4ncccc4n32)cc1 | cytopathic effect / XTT | CEM | 384 µM | RF |  | 20%
C[C@@H]1CN(C(=O)c2ccccc2)CCN1C(=O)C(=O)c1c[nH]c2cc(Cl)ccc12 | luciferase | HeLa + HELA CD4+/CCR5 | 10 µM |  |  | 81%
Clc1cccc(Cl)c1C1SCc2nc3ncccc3n21 | cytopathic effect / XTT | CEM | 63 µM | RF |  | 89%
C[C@@H](O)CCCCn1c(=O)c2c(ncn2C)n(C)c1=O | p24 | U1(HIV-1 (LAV)) + U1 | 200 µM | LAV |  | 55%
COc1ccc(F)c2c(C(=O)C(=O)N3CCN(C(=O)c4ccccn4)C[C@H]3C)c[nH]c12 | luciferase | HeLa + HELA CD4+/CCR5 | 10 µM |  |  | >98%
CCOC(=O)/C=C/c1ccc(OC(=O)CCC(=O)Oc2c(C)c(C)c3c(c2C)CC[C@@](C)(CCC[C@H](C)CCC[C@H](C)CCCC(C)C)O3)cc1 |  | Macrophage + Monocytes/macrophages | 1 µM | BaL |  | 25%
C=C(C)[C@@H]1CC[C@]2(C(=O)NCCCCCCCC(=O)N[C@@H](CC(C)C)[C@@H](O)CC(=O)O)CC[C@]3(C)[C@H](CC[C@@H]4[C@@]5(C)CC[C@H](O)C(C)(C)[C@@H]5CC[C@]43C)[C@@H]12 | syncytia | HeLa P4 + HeLa | 10 µM | LAI | GP41-I69V | >99%
C[C@@H]1CN(C(=O)c2ccccn2)CCN1C(=O)C(=O)c1c[nH]c2c(F)ccc(F)c12 | luciferase | HeLa + HELA CD4+/CCR5 | 10 µM |  |  | >98%
CC1=C(C(=O)O)C(c2cccs2)NC(=O)N1 | p24 / ELISA | HEK293T | 100 µM |  |  | 28.8%
CCCCCCCC(=O)Nc1nc(N)nc2c1ncn2[C@H]1CO[C@@H](CO)O1 | RT activity | PBMC | 7.6 µM | LAV-1 |  | 56%
O=S(=O)(O)c1ccc(-c2c3nc(c(-c4ccc(S(=O)(=O)O)cc4)c4ccc([n-]4)c(-c4ccc(S(=O)(=O)O)cc4)c4nc(c(-c5ccc(S(=O)(=O)O)cc5)c5ccc2[n-]5)C=C4)C=C3)cc1.[Gd+3] | β-galactosidase | MAGI | 50 µg/mL | IIIB |  | 69%
C[C@H]1O[C@H](O[C@@]23C(=O)[C@@H](O)[C@](C)(O)C[C@]2(O)C=CC2=C3C(=O)c3cccc(O)c3C2=O)CC[C@H]1O | plaque count | MT-4 | 1 µg/mL | LAV |  | 60%
O=C(C(=O)N1CCN(C(=O)c2ccccc2)CC1)c1c[nH]c2c(F)ccc(Br)c12 | luciferase | HeLa + HELA CD4+/CCR5 | 10 µM |  |  | 97%
CC(=O)CCC(=O)NCCCOCCOCCCNC(=O)CNC(=O)[C@H](CS)NC(=O)[C@@H](NC(=O)[C@@H](NC(=O)[C@H](CO)NC(=O)[C@@H](N)CS)C(C)C)[C@@H](C)O | p24 | PBMC(PHA STIM.) + PBMC | 1.8 µM | p13 |  | 72%
O=c1[nH]c(=O)c2ncn([C@@H]3O[C@H](CO)[C@H]3CO)c2[nH]1 | RT activity / antigen | MT-4 | 100 µg/mL | IIIB |  | 8%
O=C(C(=O)N1CCN(C(=O)c2ccc(F)cc2)CC1)c1c[nH]c2ccccc12 | RT activity | MT-2 | 10 µM | BRU |  | 73.6%
CC1=C(C(=O)OCc2ccccc2)C(c2ccc(Cl)cc2)NC(=O)N1 | p24 / ELISA | HEK293T | 100 µM |  |  | 47.5%
O=C1c2ccccc2C(=O)c2c1ccc(O)c2O | cytopathic effect | SupT1 + Sup-T1 | 50 µg/mL | IIIB |  | 37%
Fc1cccc(F)c1C1SCc2nc3ncccc3n21 | cytopathic effect / XTT | CEM | 62 µM | RF |  | 92%
CC1=C(C(=O)O)C(c2ccc(N)cc2)NC(=O)N1 | p24 / ELISA | HEK293T | 100 µM |  |  | 16.9%
CC1(C)SCc2nc3ncccc3n21 | cytopathic effect / XTT | CEM | 386 µM | RF |  | 41%
CC1=C(C(=O)O)C(c2ccccc2)NC(=O)N1 | p24 / ELISA | HEK293T | 100 µM |  |  | 1.84%
O=C(C(=O)N1CCN(C(=O)c2ccc(Cl)o2)CC1)c1c[nH]c2c(F)ccc(F)c12 | luciferase | HeLa + HELA CD4+/CCR5 | 10 µM |  |  | >98%
CC(C)[C@H](NC(=O)[C@H](CO)NC(=O)[C@@H](N)CSSCC(=O)O)C(=O)N[C@H](C(=O)N[C@@H](CSSCC(=O)O)C(=O)NCC(=O)O)[C@@H](C)O | p24 | PBMC(PHA STIM.) + PBMC | 1.32 µM | IIIB |  | 62%
O=S(=O)(O)c1c2ccccc2c(-c2c3nc(c(-c4c5ccccc5c(S(=O)(=O)O)c5ccccc45)c4ccc([nH]4)c(-c4c5ccccc5c(S(=O)(=O)O)c5ccccc45)c4nc(c(-c5c6ccccc6c(S(=O)(=O)O)c6ccccc56)c5ccc2[nH]5)C=C4)C=C3)c2ccccc12 | β-galactosidase | MAGI | 50 µg/mL | IIIB |  | 97%
Nc1ccn([C@H]2CC[C@@H](CO)O2)c(=O)n1 | RT activity | Macrophage + Macrophages | 1 µM | LAI |  | 82.7%

3 of the rows above, restated:

smiles,read by,cells,dose,strain or isolate,changes,value
CCCCCCCC(=O)Nc1nc(N)nc2c1ncn2[C@H]1CO[C@@H](CO)O1,RT activity,PBMC,7.6 µM,LAV-1,,56%
C=C(C)[C@@H]1CC[C@]2(C(=O)NCCCCCCCC(=O)N[C@@H](CC(C)C)[C@@H](O)CC(=O)O)CC[C@]3(C)[C@H](CC[C@@H]4[C@@]5(C)CC[C@H](O)C(C)(C)[C@@H]5CC[C@]43C)[C@@H]12,syncytia,HeLa P4 + HeLa,10 µM,LAI,GP41-I69V,>99%
CC1=C(C(=O)O)C(c2ccc(N)cc2)NC(=O)N1,p24 / ELISA,HEK293T,100 µM,,,16.9%

Neighbouring rows are from separate reports. Blank or dashed fields: not listed here.